{"source": "patent US9453062B2", "about": "(Beijing Hanmi Pharmaceutical Co., Ltd., priority 2011, dated 2016)", "test": "general procedure: Fmoc solid-phase peptide synthesis; Fmoc-Rink amide resin; DIC/HOBt", "details": "whole synthesis, scale 0.05 mmol", "note": "One purity is given for all peptides; the source may state it once.", "data": [{"substance": "Tyr-Aib-Glu-Gly-Thr-Phe-Thr-Ser-Asp-Tyr-Ser-Ile-Tyr-Met-Glu-Lys-Glu-Ala-Val-Arg-Glu-Phe-Ile-Ala-Trp-Leu-Val-Lys-Gly-Gly-Pro-Ser-Ser-Gly-Ala-Pro-Pro-Pro-Ser-Lys(gamma-Glu-palmitoyl)(NH2)", "values": [{"measurement": "final HPLC purity", "value": "more than 90%"}]}]}
